## Mutational interference map of HIV-1 RNA dimerization

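Randomly mutated transcripts starting with one, two or three G (1G, 2G, 3G), capped or uncapped, were folded for 30 min at 37 °C. High salt was 300 mM KCl and 5 mM MgCl2, low salt 40 mM KCl and 0.1 mM MgCl2; monomer and dimer were parted on a native gel. Mutation frequencies in the two bands give Kdimer.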

Sequence of the HIV-1 NL4-3 5' RNA, positions 1 to 437, as numbered in the source:
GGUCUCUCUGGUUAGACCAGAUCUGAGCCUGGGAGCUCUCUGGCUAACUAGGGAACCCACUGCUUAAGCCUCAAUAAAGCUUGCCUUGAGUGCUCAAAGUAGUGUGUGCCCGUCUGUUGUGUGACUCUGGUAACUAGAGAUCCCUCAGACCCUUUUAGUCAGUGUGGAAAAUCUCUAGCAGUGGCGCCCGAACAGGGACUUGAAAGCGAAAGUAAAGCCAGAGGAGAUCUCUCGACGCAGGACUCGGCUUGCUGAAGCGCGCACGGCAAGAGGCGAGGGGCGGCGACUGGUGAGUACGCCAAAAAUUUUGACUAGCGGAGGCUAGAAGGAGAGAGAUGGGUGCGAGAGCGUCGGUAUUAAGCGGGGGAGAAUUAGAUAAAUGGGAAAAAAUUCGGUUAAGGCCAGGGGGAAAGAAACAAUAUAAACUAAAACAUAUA

Values are log2 Kdimer, the median over the changes at each position: higher means that changes there hinder dimer formation, below 0 that they favour it.
One numbering serves 1G, 2G and 3G.
A position is written with its base where known.
Bases beyond 437 are not listed in the source.

| position | 1G capped low-salt | 2G uncapped low-salt | 2G uncapped high-salt | 3G uncapped low-salt |
|---|---|---|---|---|
| A385 | -0.41 | -0.19 | -0.04 | -0.06 |
| U253 | 1.96 | 2.55 | 2.34 | 2.47 |
| U100 | 0.10 | 0.13 | 0.11 | 0.28 |
| U117 | -0.30 | -0.16 | -0.05 | -0.17 |
| C38 | -0.21 | -0.13 | -0.15 | -0.14 |
| G375 | -0.09 | -0.14 | 0.03 | -0.17 |
| U422 | -0.12 | -0.04 | 0.11 | -0.07 |
| 506 | 0.00 | 0.18 | -0.04 | 0.14 |
| C207 | -0.39 | -0.58 | -0.06 | -0.46 |
| A269 | 1.59 | 1.81 | 1.48 | 1.69 |
| G298 | -0.49 | -0.49 | -0.42 | -0.31 |
| 442 | -0.07 | 0.03 | 0.02 | 0.12 |
| G234 | 0.05 | 0.00 | 0.52 | 0.43 |
| A192 | 0.39 | 0.06 | 0.12 | 0.34 |
| A421 | 0.08 | 0.05 | 0.07 | 0.03 |
| C189 | 0.14 | 0.09 | 0.00 | 0.23 |
| A54 | -0.14 | -0.51 | -0.35 | -0.39 |
| C284 | 0.58 | 0.61 | 0.46 | 0.50 |
| A388 | 0.17 | 0.09 | 0.03 | 0.02 |
| C260 | 3.11 | 3.83 | 5.57 | 3.71 |
| A332 | 0.34 | 0.47 | 0.10 | 0.56 |
| 507 | -0.05 | -0.07 | 0.05 | -0.07 |
| 488 | 0.10 | -0.01 | 0.08 | 0.01 |
| C349 | -0.20 | -0.02 | -0.32 | 0.25 |
| C362 | -0.08 | 0.15 | 0.21 | 0.43 |
| G270 | 0.68 | 0.95 | 0.86 | 1.02 |
| A227 | 1.10 | 1.25 | 1.18 | 1.44 |
| A311 | 0.93 | 0.87 | 0.71 | 0.75 |
| U115 | 0.36 | 0.54 | -0.07 | 0.65 |
| 503 | -0.06 | -0.02 | 0.04 | 0.13 |
| C173 | -0.29 | -0.41 | -0.05 | -0.46 |
| C299 | -0.62 | -0.58 | 0.24 | 0.12 |
| G164 | 0.02 | 0.15 | 0.12 | 0.09 |
| A66 | -0.08 | -0.23 | 0.13 | -0.06 |
| 447 | -0.05 | 0.09 | -0.06 | -0.32 |
| A225 | -0.39 | -0.11 | 0.00 | -0.11 |
| 476 | -0.07 | -0.16 | 0.00 | 0.12 |
| 466 | 0.00 | 0.02 | 0.03 | -0.13 |
| C114 | 0.11 | 0.29 | -0.20 | 0.73 |
| C193 | -0.54 | -0.29 | -0.01 | -0.31 |
| 478 | -0.01 | -0.06 | -0.05 | 0.03 |
| 475 | 0.00 | 0.03 | -0.11 | 0.07 |
| A147 | -0.03 | -0.11 | 0.06 | 0.09 |
| U306 | -0.05 | 0.02 | 0.13 | -0.01 |
| G240 | -0.41 | -0.12 | -0.11 | -0.15 |
| C29 | -0.19 | -0.01 | 0.13 | -0.17 |
| A235 | -1.47 | -1.30 | -0.52 | -1.56 |
| A256 | 1.74 | 1.85 | 0.93 | 1.59 |
| G395 | -0.06 | -0.29 | -0.05 | -0.09 |
| G183 | 0.12 | 0.22 | 0.23 | -0.03 |

A selection of 6 entries from above:

position,1G capped low-salt,2G uncapped low-salt,2G uncapped high-salt,3G uncapped low-salt
C114,0.11,0.29,-0.20,0.73
442,-0.07,0.03,0.02,0.12
G183,0.12,0.22,0.23,-0.03
476,-0.07,-0.16,0.00,0.12
466,0.00,0.02,0.03,-0.13
C29,-0.19,-0.01,0.13,-0.17

Data from the supplement of Ye et al. 2022, doi:10.1038/s41594-022-00746-2.